Pooled drug test results. Numbers come from NIAID ChemDB, via PubChem.

Common to all: tests in culture

Blank or dashed fields: not listed here. Fold resistance: result on the changed form divided by that on wild type. Inhibition is in % at the dose shown (toxicity tests: loss of growth or viability). Conditions beyond the fields shown may differ between rows. ECn is the concentration giving n% inhibition of infection, replication or growth.

compound,mutations,method,organism,cell line,strain or isolate,measure,dose,setting,result
Cc1cn([C@H]2C[C@H](N=[N+]=[N-])[C@@H](COP(=O)(O)OC[C@H]3OC(O)[C@@H](O)[C@@H](O)[C@@H]3O)O2)c(=O)[nH]c1=O,,RT activity,HIV-1,PBL,LAV-Bru,inhibition,5 µM,7 d,94%
CO[C@H]1[C@@H](O)[C@H](n2ccc(N)nc2=O)[C@@H](O)[C@H](O)[C@@H]1O.O=C(O)/C=C/C(=O)O,,cytopathic effect / MTT,HIV-2,MT-4,,inhibition,10 µg/mL,,38.1%
CCNc1cccnc1N1CCN(C(=O)c2cc3cc(OC)ccc3[nH]2)CC1,,MTT,HIV-1,PBMC,Seropositive clinical isolate D,inhibition,1 µM,,64%
CO[C@@H]1[C@@H](O)[C@@H](O)[C@H](O)[C@H](O)[C@H]1n1cnc2c(N)ncnc21,,cytopathic effect / MTT,HIV-2,MT-4,,inhibition,10 µg/mL,,32.4%
Nc1ncnc2c1ncn2[C@H]1CC[C@@H](CO)O1,,virus yield,HIV-2,CEM,LAV-2,inhibition,1 µM,,90%
CO[C@H]1[C@@H](O)[C@H](n2cnc3c(N)ncnc32)[C@@H](O)[C@H](O)[C@@H]1O,,cytopathic effect / MTT,HIV-2,MT-4,,inhibition,10 µg/mL,,62.5%
O=c1[nH]cnc2c1ncn2[C@H]1CC[C@@H](CO)O1,,p24,HIV-1,PBMC,7253 CLADE A CLADE A,EC50,,,1.01 µM
CO[C@H]1[C@@H](O)[C@H](n2ccc(N)nc2=O)[C@@H](O)[C@H](O)[C@@H]1O,,cytopathic effect / MTT,HIV-2,MT-4,,inhibition,10 µg/mL,,22.6%
O=C1N(Cc2ccc(CO)cc2)[C@H](Cc2ccccc2)[C@H](O)[C@@H](O)[C@@H](Cc2ccccc2)N1Cc1ccc(CO)cc1,,p24,HIV-1,PBMC,IIIB,inhibition,0.07 µM,,90%
Cc1cn([C@H]2C[C@H](N=[N+]=[N-])[C@@H](CO)O2)c(=O)[nH]c1=O,,RT activity,HIV-1,CEM,LAV-Bru,inhibition,25 µM,26 d,94%
O=C(O)P(=O)(O)O,,RT activity,HIV-1,PBL,IIIB,inhibition,16 µM,6 d,75%
c1cc(CN2CCCNCCNCCCNCC2)ccc1CN1CCCNCCNCCCNCC1,,p24,HIV-1,PBMC,SW38 CLADE C R5,inhibition,0.1 µM,,0%
C#C[C@]1(CO)O[C@@H](n2cnc3c(N)nc(F)nc32)CC1O,K65R Y115F Q151M M184V,β-galactosidase / absorbance,HIV-2,MAGIC-5A,ROD9,fold resistance,,,13
CC(C)[C@H](NC(=O)c1ccc2ccccc2n1)C(=O)N[C@@H](Cc1ccccc1)[C@H](O)CN1CC[C@@H](OCc2ccncc2)C[C@H]1C(=O)NC(C)(C)C,,p24,HIV-1,PBMC,Wg3523,inhibition,0.091 µM,,90%
O=S(=O)(O)c1cc(N=C=S)ccc1/C=C/c1ccc(N=C=S)cc1S(=O)(=O)O,,syncytia,HIV-1,JM,GB8,inhibition,25 µg/mL,,100%
Cc1cn([C@H]2C[C@H](N=[N+]=[N-])[C@@H](COP(=O)(O)OC[C@H]3OC(O)[C@H](O)[C@@H](O)[C@@H]3O)O2)c(=O)[nH]c1=O,,RT activity,HIV-1,U-937,LAV-Bru,inhibition,25 µM,14 d,0%

A second listing of 2 rows from above:

compound,mutations,method,organism,cell line,strain or isolate,measure,dose,setting,result
c1cc(CN2CCCNCCNCCCNCC2)ccc1CN1CCCNCCNCCCNCC1,,p24,HIV-1,PBMC,SW38 CLADE C R5,inhibition,0.1 µM,,0%
CO[C@@H]1[C@@H](O)[C@@H](O)[C@H](O)[C@H](O)[C@H]1n1cnc2c(N)ncnc21,,cytopathic effect / MTT,HIV-2,MT-4,,inhibition,10 µg/mL,,32.4%